Measured data: PubChem BioAssay AID1259414 (Drosophila RNAi Screening Center, 2018)

Purpose: 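Fly genes that alter Wolbachia amount inside host cells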 (primary screen)
Cells: Drosophila JW18 cells infected with Wolbachia
Reagents: long dsRNA against Drosophila genes, 0.25 µg dsRNA per well of a 384-well plate
Time to read-out: 5 days
Challenge: cells persistently infected with Wolbachia before knock-down; no added drug
Read-out: 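Automated imaging of bacterial rRNA staining divided by host cell count, reported as plate-normalised robust z-score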
Scale: Wolbachia per cell robust z: higher = more Wolbachia per host cell than the plate typical
Rule for the call: 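Active if absolute robust z reaches 1.5 in two or more of three replicates, leaving out multi- or no-target dsRNAs, genes unexpressed in JW18 and A1 wells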
In all, the deposit lists about 24,000 reagents; below is a random part of those that have a named target and a result. Over the whole deposit, about 1,210 (5%) got an active call. 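Inactive calls also include excluded dsRNAs with several or no targets, genes unexpressed in JW18, and well A1, regardless of score.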

| gene | amplicon | Wolbachia per cell robust z, rep 1 | Wolbachia per cell robust z, rep 2 | Wolbachia per cell robust z, rep 3 | call |
| --- | --- | --- | --- | --- | --- |
| inv (GeneID 36239) | DRSC07633 | 0.443 | 0.46 | 0.235 | inactive |
| inv (GeneID 36239) | DRSC29580 | 0.747 | 0.64 | 0.0726 | inactive |
| CG32808 (GeneID 318221) | DRSC17689 | 0.93 | 1.19 | 1.17 | inactive |
| CG32808 (GeneID 318221) | DRSC28726 | 0.86 | 0.511 | 1.3 | inactive |
| CG34112 (GeneID 4379842) | DRSC12235 | 0.259 | 0.603 | 0.0454 | inactive |
| CG6638 (GeneID 38979) | DRSC10680 | -2.18 | -0.0013 | -1.24 | inactive |
| CG6638 (GeneID 38979) | DRSC24246 | -1.07 | 0.386 | 0.173 | inactive |
| CG13337 (GeneID 36518) | DRSC06371 | 0.266 | -0.787 | 0.495 | inactive |
| CG13337 (GeneID 36518) | DRSC28309 | -3.84 | -1.06 | -0.882 | inactive |
| ETHR (GeneID 42523) | DRSC15915 | 1.05 | 0.003 | -0.223 | inactive |
| ETHR (GeneID 42523) | DRSC29606 | -1.64 | -3.97 | -1.08 | inactive |
| CG15760 (GeneID 32324) | DRSC19725 | -0.29 | -0.492 | 0.946 | inactive |
| CG15760 (GeneID 32324) | DRSC25944 | 0.608 | 1.24 | -0.285 | inactive |
| Opbp (GeneID 246618) | DRSC04966 | -0.199 | 0.869 | 1.31 | inactive |
| Opbp (GeneID 246618) | DRSC28850 | 0.985 | -0.689 | -0.607 | inactive |
| CG8172 (GeneID 35905) | DRSC07089 | 0.291 | 0.368 | -2.6 | inactive |
| CG8172 (GeneID 35905) | DRSC22113 | -3.27 | -0.953 | -0.463 | inactive |
| CG8172 (GeneID 35905) | DRSC25604 | 0.368 | -0.828 | -1.02 | inactive |
| hmw (GeneID 42207) | DRSC16277 | 0.296 | -0.00739 | 0.718 | inactive |
| CG34278 (GeneID 5740656) | DRSC38818 | -0.823 | 0.448 | -0.0396 | inactive |
| Ugalt (GeneID 31255) | DRSC18467 | 0.925 | 0.367 | -1.18 | inactive |
| par-6 (GeneID 32752) | DRSC20359 | -5 | -1.65 | -0.964 | active |
| par-6 (GeneID 32752) | DRSC29863 | -0.588 | -0.981 | -1.4 | inactive |
| CCAP (GeneID 42683) | DRSC15674 | -1.24 | -1.99 | 0.422 | inactive |
| Sec6 (GeneID 37142) | DRSC06932 | 2.28 | 1 | 1.37 | inactive |
| SerRS (GeneID 33518) | DRSC00496 | 1.45 | 0.0531 | 0.441 | inactive |
| POSH (GeneID 36990) | DRSC07499 | 0.603 | 0.83 | -1.25 | inactive |
| HUWE1 (GeneID 32510) | DRSC20089 | 0.602 | 0.852 | -1.58 | inactive |
